From publication PMC7868322, “Rational Design of A Novel Small-Molecule HIV-1 Inactivator Targeting Both gp120 and gp41 of HIV-1” (Frontiers in Pharmacology, 2021)
The amount applied is not stated for every result.

Experiments:
HIV-1 Bal (R5) = test: Inhibition of HIV-1 infection (p24 ELISA); format: cell-based; details: IC50 alone vs in mixture
HIV-1 IIIB (X4) = test: Inhibition of HIV-1 infection (p24 ELISA); format: cell-based
[1] = average on IIIB and Bal infection

## CC1(C)CC(NC(=O)C(=O)Nc2ccc(Cl)c(F)c2)CC(C)(C)N1 [FD016, N^1-(4-Chloro-3-Fluorophenyl)-N^2-(2,2,6,6-Tetramethylpiperidin-4-yl) Oxalamide]
HIV-1 Bal (R5)
  Dose reduction (FD016): 10.31 fold
HIV-1 IIIB (X4); IIIB, IC50 alone vs in mixture
  Dose reduction (FD016): 3.69 fold

## O=C(O)c1cc(-c2ccc(/C=C3\SC(=S)N(CCc4ccc(O)cc4)C3=O)o2)ccc1Cl [FD017, (Z)-2-Chloro-5-(5-((3-(4-Hydroxyphenethyl)-4-oxo-2-Thioxothiazolidin-5-ylidene)methyl)furan-2-yl)benzoic Acid]
HIV-1 Bal (R5)
  Dose reduction (FD017): 1.63 fold
HIV-1 IIIB (X4); IIIB, IC50 alone vs in mixture
  Dose reduction (FD017): 3.05 fold

## CC1(C)CC(NC(=O)C(=O)Nc2ccc(Cl)c(F)c2)CC(C)(C)N1C(=O)COc1ccc(CCN2C(=O)/C(=C/c3ccc(-c4ccc(Cl)c(C(=O)O)c4)o3)SC2=S)cc1 [FD028, (Z)-2-Chloro-5-(5-((3-(4-(2-(4-(2-((4-Chloro-3-Fluorophenyl)amino)-2-oxoacetamido)-2,2,6,6-Tetramethylpiperidin-1-yl)-2-oxoethoxy)phenethyl)-4-oxo-2-Thioxothiazolidin-5-ylidene)methyl)furan-2-yl)benzoic Acid]
HIV-1 IIIB (X4); [1]
  Average inhibitory activity relative to FD016: 57 fold
  Average inhibitory activity relative to FD017: 6 fold
